According to patent US20100143416:

Molecular target: T1, human neutrophil protein 1 (HNP-1), synthetic
T1 chain: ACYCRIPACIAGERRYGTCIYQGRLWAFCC

B1: Bacillus anthracis lethal factor (LF), recombinant (protein)
chain: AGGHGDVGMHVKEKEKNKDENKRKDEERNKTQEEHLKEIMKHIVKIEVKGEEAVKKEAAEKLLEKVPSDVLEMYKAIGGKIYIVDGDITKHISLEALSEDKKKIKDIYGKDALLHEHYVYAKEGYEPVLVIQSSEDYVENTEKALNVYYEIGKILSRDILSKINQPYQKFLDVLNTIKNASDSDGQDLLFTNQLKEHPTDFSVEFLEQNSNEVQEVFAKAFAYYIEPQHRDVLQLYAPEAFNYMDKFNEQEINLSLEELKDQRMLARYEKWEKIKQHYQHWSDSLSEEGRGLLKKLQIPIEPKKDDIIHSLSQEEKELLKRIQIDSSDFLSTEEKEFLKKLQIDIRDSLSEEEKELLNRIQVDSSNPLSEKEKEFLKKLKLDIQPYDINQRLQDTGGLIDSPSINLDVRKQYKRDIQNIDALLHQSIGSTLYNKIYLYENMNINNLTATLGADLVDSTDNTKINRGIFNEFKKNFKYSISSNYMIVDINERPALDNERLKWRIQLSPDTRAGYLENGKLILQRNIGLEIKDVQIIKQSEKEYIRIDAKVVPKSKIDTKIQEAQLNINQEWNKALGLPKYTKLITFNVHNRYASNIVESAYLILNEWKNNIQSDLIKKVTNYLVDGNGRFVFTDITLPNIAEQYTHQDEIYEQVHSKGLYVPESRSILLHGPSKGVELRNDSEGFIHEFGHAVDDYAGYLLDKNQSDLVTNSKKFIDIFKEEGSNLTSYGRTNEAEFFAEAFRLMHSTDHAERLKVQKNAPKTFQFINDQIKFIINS
B1 was tested, and the “in vitro cleavage of S35-labeled MKK3b by LF (SDS-PAGE and autoradiography)” value was “in the presence of 10 µM HNP-1, proteolysis was efficiently inhibited”.
